Compound potency records, mixed from different reports. Data source: NIAID ChemDB in PubChem.

Common to all: growth or infection tests; organism: HIV-1; endpoint: inhibition

Percent inhibition refers to the dose given; in toxicity tests it is the harm to the cells.

structure | changes | strain or isolate | tested at | setting | cells | method | result
Nc1ccccc1C(=O)N1CCN(C(=O)C(=O)c2c[nH]c3cccc(Cl)c23)CC1 |  |  | 10 µM |  | HeLa + HELA CD4+/CCR5 | luciferase | 75%
CCCCCCCCCCCCCCCCOP(=O)(OCCO[C@@H]1O[C@H](CO)[C@@H](O)[C@H](O)[C@@H]1O)OC[C@H]1O[C@@H](n2cc(C)c(=O)[nH]c2=O)C[C@@H]1N=[N+]=[N-] |  | LAV-Bru | 0.2 µM | 7 d | CEM | RT activity | 81%
Nc1ncnc2c1ncn2[C@@H]1O[C@H](CO)[C@H]1F |  |  | 100 µg/mL |  | MT-4 | antigen | >99.9%
Cc1ccccc1C1=CC(c2cnc(C(C)C)cn2)SC(N)=N1 |  | NL4-3 | 10 µg/mL |  | TZM-bl | p24 / ELISA / antigen | 28%
Nc1ncnc2c1ncn2[C@@H]1O[C@H](CO)[C@H]1N |  |  | 100 µg/mL |  | MT-4 | antigen | >99.9%
CC(C)c1cnn2c(NCc3ccc(-c4ccccn4)cc3)nc(N[C@H](CO)C(C)O)nc12 |  |  | 0.05 µM |  | ACH2 | trypan blue | 50%
C[C@@H](C/C=C1\O[C@H]2C[C@H]3[C@@H]4CC=C5C[C@@H](O[C@@H]6O[C@H](CO)[C@H](O[C@@H]7O[C@H](CO)[C@@H](O)[C@H](O[C@@H]8OC[C@@H](O)C(O)[C@H]8O)[C@H]7O[C@@H]7O[C@H](CO)[C@@H](O)[C@H](O)[C@H]7O)[C@H](O)[C@H]6O)CC[C@]5(C)[C@H]4CC[C@]3(C)[C@H]2[C@]1(C)O)CO[C@@H]1O[C@H](CO)[C@@H](O)[C@H](O)[C@H]1O |  |  | 30 µM | pseudotyped | SupT1 | luciferase / single cycle | 51%
O=C(O)CNP(=O)(O)OC[C@H]1O[C@@H](n2ccc(N3CCCC3)nc2=O)CC1O |  | IIIB | 10 µM |  | CEM-SS | visual reading / cell fusion | 13.1%
CC(C)c1cnc(C2C=C(c3cccc([N+](=O)[O-])c3)N=C(N)S2)cn1 |  | NL4-3 | 10 µg/mL |  | TZM-bl | p24 / ELISA / antigen | 85%
O=c1nc(N2C[C@H](O)[C@@H](O)C2)ccn1[C@H]1C[C@@H](O)[C@@H](CO)O1 |  | IIIB | 10 µM |  | CEM-SS | visual reading / cell fusion | 7.7%
CC(C)c1cnc(C2C=C(c3cccc(Cl)c3)N=C(N)S2)cn1 |  | NL4-3 | 10 µg/mL |  | TZM-bl | p24 / ELISA / antigen | 64%
CCc1nc2cc3ccccc3cc2cc1C(=O)N[C@@H](C/C=C\C[C@H](NC(=O)c1cc2cc3ccccc3cc2nc1CC)C(=O)N1CCC[C@H]1C(=O)N[C@@H](Cc1ccccc1)C(=O)NCCCN)C(=O)N1CCC[C@H]1C(=O)N[C@@H](Cc1ccccc1)C(=O)NCCCN |  |  | 20 µM | pseudotyped | HEK293T + TZM-bl | luciferase | >90%
O=c1[nH]cnc2c1ncn2[C@H]1C[C@@H](CO)O1 |  |  | 3 µg/mL |  | MT-4 | antigen | >99.9%
CO[C@@H](C[C@H](C)CO[C@@H]1O[C@H](CO)[C@@H](O)[C@H](O)[C@H]1O)C1=C(C)[C@H]2[C@H](C[C@H]3[C@@H]4CC=C5C[C@@H](O[C@@H]6O[C@H](CO)[C@H](O[C@@H]7O[C@H](CO)[C@@H](O)[C@H](O[C@@H]8OC[C@@H](O)C(O)[C@H]8O)[C@H]7O[C@@H]7O[C@H](CO)[C@@H](O)[C@H](O)[C@H]7O)[C@H](O)[C@H]6O)CC[C@]5(C)[C@H]4CC[C@@]32C)O1 |  |  | 30 µM | pseudotyped | SupT1 | luciferase / single cycle | 43.43%
Nc1ccn([C@H]2C=C[C@@H](CO)O2)c(=O)n1 |  | IIIB | 0.1 µM |  | MT-4 | antigen | 20%
C[C@H]1[C@H](O)[C@@H](C)/C=C/C=C/C=C/C=C/C=C/C=C/C=C/[C@H](O[C@@H]2O[C@H](C)[C@@H](O)[C@H](N)[C@@H]2O)C[C@@H]2O[C@](O)(C[C@@H](O)C[C@@H](O)CC[C@H](O)[C@@H](O)C[C@@H](O)CC(=O)O[C@H]1C)C[C@H](O)[C@H]2C(=O)O |  | MDR807 Primary isolate X4 (SI) | 1.9 µM |  | PBMC | p24 / RT activity | 90%
Cc1cn([C@H]2CC(O)[C@@H](CO)O2)c(=O)nc1N1CCCC1 |  | IIIB | 10 µM |  | CEM-SS | XTT / cell fusion | 0%
[N-]=[N+]=NC[C@H]1[C@H](n2cnc3c(N)ncnc32)O[C@@H]1CO |  |  | 3 µg/mL |  | MT-4 | antigen | 85%
CC(C)c1cnc(C2C=C(c3ccc(F)cc3)N=C(N)S2)cn1 |  | NL4-3 | 10 µg/mL |  | TZM-bl | p24 / ELISA / antigen | 80%
Nc1cccc(C(=O)N2CCN(C(=O)C(=O)c3c[nH]c4c(F)ccc(F)c34)CC2)c1 |  |  | 10 µM |  | HeLa + HELA CD4+/CCR5 | luciferase | >98%
C[C@H]1CC[C@@]2(OC1)O[C@H]1C[C@H]3[C@@H]4CC=C5C[C@@H](O[C@@H]6O[C@H](CO)[C@H](O[C@@H]7O[C@H](CO)[C@@H](O)[C@H](O[C@@H]8OC[C@@H](O)C(O)[C@H]8O)[C@H]7O[C@@H]7O[C@H](CO)[C@@H](O)[C@H](O)[C@H]7O)[C@H](O)[C@H]6O)CC[C@]5(C)[C@H]4CC[C@]3(C)[C@H]1[C@@H]2C |  |  | 30 µM | pseudotyped | SupT1 | luciferase / single cycle | 99.95%
CC(C)c1cnc(C2C=C(c3ccccc3O)N=C(N)S2)cn1 |  | NL4-3 | 10 µg/mL |  | TZM-bl | p24 / ELISA / antigen | 53%
CCc1cccc2c(C(=O)C(=O)N3CCN(C(=O)c4ccccc4)C[C@H]3C)c[nH]c12 |  |  | 10 µM |  | HeLa + HELA CD4+/CCR5 | luciferase | >98%
CC(C)c1cnc(C2C=C(c3ccccc3[N+](=O)[O-])N=C(N)S2)cn1 |  | NL4-3 | 10 µg/mL |  | TZM-bl | p24 / ELISA / antigen | 83%
C[C@@H]1CO[C@]2(C[C@@H]1O[C@@H]1O[C@H](CO)[C@@H](O)[C@H](O)[C@H]1O)O[C@H]1C[C@H]3[C@@H]4CC=C5C[C@@H](O[C@@H]6O[C@H](CO)[C@H](O[C@@H]7O[C@H](CO)[C@@H](O)[C@H](O[C@@H]8OC[C@@H](O)C(O)[C@H]8O)[C@H]7O[C@@H]7O[C@H](CO)[C@@H](O)[C@H](O)[C@H]7O)[C@H](O)[C@H]6O)CC[C@]5(C)[C@H]4CC[C@]3(C)[C@H]1[C@@H]2C |  |  | 30 µM | pseudotyped | SupT1 | luciferase / single cycle | 49.17%
Cc1ccc(C2=CC(c3cnc(C(C)C)cn3)SC(N)=N2)cc1 |  | NL4-3 | 10 µg/mL |  | TZM-bl | p24 / ELISA / antigen | 23%
OC[C@H]1O[C@@H](n2cnc3c(N4C[C@@H](O)[C@H](O)C4)ncnc32)C[C@H]1O |  | IIIB | 10 µM |  | CEM-SS | visual reading / cell fusion | 4.3%
C[C@H]1[C@H](O)[C@@H](C)/C=C/C=C/C=C/C=C/C=C/C=C/C=C/[C@H](O[C@@H]2O[C@H](C)[C@@H](O)[C@H](N)[C@@H]2O)C[C@@H]2O[C@](O)(C[C@@H](O)C[C@@H](O)CC[C@H](O)[C@@H](O)C[C@@H](O)CC(=O)O[C@H]1C)C[C@H](O)[C@H]2C(=O)O |  | IIIB | 1 µg/mL |  | H9 | p24 / antigen | 72%
C[C@H]1CC[C@@]2(OC1)O[C@H]1C[C@H]3[C@@H]4CC=C5C[C@@H](O[C@@H]6O[C@H](CO)[C@H](O[C@@H]7O[C@H](CO)[C@@H](O)[C@H](O)[C@H]7O[C@@H]7O[C@H](CO)[C@@H](O)[C@H](O)[C@H]7O)[C@H](O)[C@H]6O)CC[C@]5(C)[C@H]4CC(=O)[C@]3(C)[C@H]1[C@@H]2C |  |  | 30 µM | pseudotyped | SupT1 | luciferase / single cycle | 62.19%
Cc1cn([C@H]2C[C@H](N=[N+]=[N-])[C@@H](COP(=O)(O)OCCO[C@H]3O[C@H](CO)[C@@H](O)[C@H](O)[C@@H]3O)O2)c(=O)[nH]c1=O |  | LAV-Bru | 1 µM | 14 d | U-937 | RT activity | 0%
O=c1[nH]cnc2c1ncn2[C@@H]1O[C@H](CO)[C@H]1COS(=O)(=O)O |  |  | 10 µg/mL |  | MT-4 | antigen | 90%
OC[C@H]1O[C@@H](n2cnc3c(N4CC[C@H](O)C4)ncnc32)C[C@H]1O |  | IIIB | 10 µM |  | CEM-SS | visual reading / cell fusion | 0%
CC(=O)[C@H]1[C@@H](OC(=O)CC[C@H](C)CO[C@@H]2O[C@H](CO)[C@@H](O)[C@H](O)[C@H]2O)C[C@H]2[C@@H]3CC=C4C[C@@H](O[C@@H]5O[C@H](CO)[C@H](O[C@@H]6O[C@H](CO)[C@@H](O)[C@H](O[C@@H]7OC[C@@H](O)C(O)[C@H]7O)[C@H]6O[C@@H]6O[C@H](CO)[C@@H](O)[C@H](O)[C@H]6O)[C@H](O)[C@H]5O)CC[C@]4(C)[C@H]3CC[C@@]21C |  |  | 30 µM | pseudotyped | SupT1 | luciferase / single cycle | 51.99%
COc1ccc(Cl)c2[nH]cc(C(=O)C(=O)N3CCN(C(=O)c4ccccc4)CC3)c12 |  |  | 10 µM |  | HeLa + HELA CD4+/CCR5 | luciferase | >98%
C=C(C)[C@@H]1CC[C@]2(C(=O)NCCCCCCCC(=O)N[C@@H](CC(C)C)[C@@H](O)CC(=O)O)CC[C@]3(C)[C@H](CC[C@@H]4[C@@]5(C)CC[C@H](O)C(C)(C)[C@@H]5CC[C@]43C)[C@@H]12 | GP41-K106R | LAI | 10 µM |  | HeLa P4 + HeLa | syncytia | >99%
Cc1ccc(S)c(C(=O)N2CCN(C(=O)C(=O)c3c[nH]c4cccc(F)c34)CC2)c1 |  |  | 10 µM |  | HeLa + HELA CD4+/CCR5 | luciferase | >98%
N=C1Sc2ccccc2C2=NCCCN12 |  | 92RW016 | 0.54 µM |  | PBMC | ELISA | 90%
COc1cccc2[nH]cc(C(=O)C(=O)N3CCN(C(=O)c4ccccc4)C[C@H]3C)c12 |  |  | 10 µM |  | HeLa + HELA CD4+/CCR5 | luciferase | >98%
CCCCCCCCCCCCCCCCOP(=O)(OC[C@H]1OC(O)[C@@H](O)[C@@H](O)[C@@H]1O)OC[C@H]1O[C@@H](n2cc(C)c(=O)[nH]c2=O)C[C@@H]1N=[N+]=[N-] |  | LAV-Bru | 1 µM | 22 d | CEM | RT activity | 22%

A second listing of 3 rows from above:

structure	changes	strain or isolate	tested at	setting	cells	method	result
O=c1[nH]cnc2c1ncn2[C@@H]1O[C@H](CO)[C@H]1COS(=O)(=O)O			10 µg/mL		MT-4	antigen	90%
C[C@H]1[C@H](O)[C@@H](C)/C=C/C=C/C=C/C=C/C=C/C=C/C=C/[C@H](O[C@@H]2O[C@H](C)[C@@H](O)[C@H](N)[C@@H]2O)C[C@@H]2O[C@](O)(C[C@@H](O)C[C@@H](O)CC[C@H](O)[C@@H](O)C[C@@H](O)CC(=O)O[C@H]1C)C[C@H](O)[C@H]2C(=O)O		MDR807 Primary isolate X4 (SI)	1.9 µM		PBMC	p24 / RT activity	90%
OC[C@H]1O[C@@H](n2cnc3c(N4C[C@@H](O)[C@H](O)C4)ncnc32)C[C@H]1O		IIIB	10 µM		CEM-SS	visual reading / cell fusion	4.3%

Conditions beyond the fields shown may differ between rows. Blank or dashed fields: not listed here.